Compound potency records, mixed from different reports. Data source: NIAID ChemDB in PubChem.

ICn: concentration for n% inhibition.

compound | agent | read by | kind | dose | read-out | cells | protein | strain | value
Cc1c(CNc2cccc3c2CCCC3)cnc2nc(N)nc(N)c12 | Encephalitozoon intestinalis |  | culture | 0.1 µg/mL | inhibition | RK-13 |  |  | 67.2%
O=C1CC(c2ccc(O)cc2)Oc2ccccc21 | Mycobacterium tuberculosis |  | culture |  | EC50 |  |  |  | >12.5 µg/mL
CC(C)CC(NC(N)=O)C(=O)O | Mycobacterium tuberculosis |  | culture |  | MIC |  |  | H37Rv | >100 µg/mL
COc1ccc([C@@H]2CC(=O)c3c(OC)cc(OC)c([C@H]4C(=O)c5c(OC)cc(OC)cc5O[C@@H]4c4ccc(OC)cc4)c3O2)cc1 | Mycobacterium tuberculosis |  | culture |  | EC50 |  |  | H37Rv | <12.5 µg/mL
CC1(C)C2CC[C@@H](CNc3nnc(NC(=O)c4ccc([N+](=O)[O-])o4)s3)C1C2 | Human cytomegalovirus |  | target |  | IC50 |  | Polymerase |  | >25 µM
Cc1cc(C)c(NCCC(C)C)c(C)c1 | Mycobacterium tuberculosis |  | culture |  | MIC |  |  | H37Rv | >100 µg/mL
CCOC(=O)Nc1cc2[nH]c(-c3ccccc3)nc2c(N)n1 | Encephalitozoon intestinalis |  | culture | 0.01 µg/mL | inhibition | RK-13 |  |  | 3.2%
O=C1C=C(S(=O)(=O)O)c2ccccc2C1=O | Mycobacterium tuberculosis |  | culture |  | MIC |  |  | H37Rv | 100 µg/mL
C#CC[C@@H](C(=O)N[C@H](/C=C/C(=O)OCC)C[C@@H]1CCNC1=O)n1cccc(NC(=O)c2cc(C)on2)c1=O | Rhinovirus | cytopathic effect / XTT | culture |  | EC50 | H1-HELA |  | Serotype 29 | 0.059 µM
Cc1c(CSc2cccc3ccccc23)cnc2nc(N)nc(N)c12 | Encephalitozoon intestinalis |  | culture | 0.01 µg/mL | inhibition | RK-13 |  |  | 12.7%
Fc1cccc(-c2cncc(N3CCN(c4ccccc4F)CC3)n2)c1 | Cytomegalovirus |  | target |  | IC50 |  | UL97 kinase |  | <100 µM
O=C(Nc1nnc(NCCC(c2ccccc2)c2ccccc2)s1)c1ccc(C(F)(F)F)cc1 | Human cytomegalovirus |  | target |  | IC50 |  | Polymerase |  | >25 µM
N#Cc1cccc2cnccc12 | Mycobacterium tuberculosis |  | culture |  | MIC |  |  | H37Rv | >100 µg/mL
O=C1c2ccccc2OC(c2ccccc2)C1I | Mycobacterium tuberculosis |  | culture |  | EC50 |  |  |  | >12.5 µg/mL
COc1cc(-c2ccc(N=Nc3ccc4c(S(=O)(=O)O)cc(S(=O)(=O)O)c(N)c4c3O)c(OC)c2)ccc1N=Nc1ccc2c(S(=O)(=O)O)cc(S(=O)(=O)O)c(N)c2c1O | Adenovirus | cytopathic effect | culture | 10 µg/mL | inhibition | Human embryonic lung cells |  | TYPE 3 | 0%
C=CC(O)CSCCCCCCCCCCCC | Mycobacterium tuberculosis |  | culture |  | MIC |  |  | H37Rv | >100 µg/mL
O=C(Nc1nnc(NCCCNC2CCCCC2)s1)c1ccc(S(=O)(=O)F)cc1 | Human cytomegalovirus |  | target |  | IC50 |  | Polymerase |  | >25 µM
CO[C@H]1[C@@H](OC(=O)/C=C/C=C/C=C/C=C/C(=O)O)CC[C@@]2(CO2)[C@@H]1[C@@]1(C)O[C@@H]1CC=C(C)C | Encephalitozoon intestinalis |  | culture | 0.1 µg/mL | inhibition | RK-13 |  |  | 85.4%
CCCCCC(=O)c1ccccc1 | Mycobacterium tuberculosis |  | culture |  | MIC |  |  | H37Rv | 25 µg/mL
O=S(=O)([O-])c1cc(NS(=O)(=O)c2ccccc2)c2c(S(=O)(=O)[O-])cc(S(=O)(=O)[O-])cc2c1 | Rhinovirus | cytopathic effect | culture | 50 µg/mL | inhibition | Human amnion AV3 cells |  |  | 0%
O=C(Nc1nnc(NC2CCCCCC2)s1)c1ccc(Cl)c(Cl)c1 | Human cytomegalovirus |  | target |  | IC50 |  | Polymerase |  | >25 µM
C(=C\C=C\c1ccccc1)/C=C/c1ccccc1 | Mycobacterium tuberculosis |  | culture |  | MIC |  |  | H37Rv | >100 µg/mL
COc1ccc(N2CCN(c3cncc(-c4cccc(OC)c4)n3)CC2)cc1 | Cytomegalovirus |  | target | 10 µM | inhibition |  | UL97 kinase |  | >15%
Nc1c(S(=O)(=O)O)cc2cc(S(=O)(=O)O)cc(O)c2c1O | Herpes simplex virus | cytopathic effect | culture | 50 µg/mL | inhibition | Human conjunctiva cells |  |  | 30%
FC(F)(F)c1ccc(-c2cncc(N3CCN(c4cccc(Cl)c4)CC3)n2)cc1 | Cytomegalovirus |  | target |  | IC50 |  | UL97 kinase |  | <100 µM
CC(=O)Oc1ccccc1C(=O)Nc1ncc([N+](=O)[O-])s1 | Vittaforma corneae |  | culture | 0.01 µg/mL | inhibition | RK-13 |  |  | 25.7%
Oc1ccc(Cl)cc1 | Mycobacterium tuberculosis |  | culture |  | MIC |  |  | H37Rv | 50 µg/mL
Fc1ccc(N2CCCCC2)c(NC(=S)c2ccncc2)c1 |  | kinase activity | host protein | 10 µM | inhibition |  | PKCzeta |  | -4%
Cc1ccc2nc3c(Cl)c(C)c(=O)cc-3sc2c1 | Mycobacterium tuberculosis | BACTEC | culture | 12.5 µg/mL | inhibition |  |  | H37Rv | 82%
Cc1cc(C)cc(-c2cncc(N3CCN(c4cnccn4)CC3)n2)c1 | Cytomegalovirus |  | target | 10 µM | inhibition |  | UL97 kinase |  | >15%
COC(=O)Nc1cc(N)c2c(c1)NC(=O)C(c1ccccc1)N2 | Encephalitozoon intestinalis |  | culture | 0.1 µg/mL | inhibition | RK-13 |  |  | 58.6%
O=C1c2ccccc2C(=O)c2c1cccc2S(=O)(=O)O | Mycobacterium tuberculosis |  | culture |  | MIC |  |  | H37Rv | >100 µg/mL
O=C1CC(c2ccccc2)Oc2cc(Cl)ccc21 | Mycobacterium tuberculosis |  | culture |  | EC50 |  |  | H37Rv | >12.5 µg/mL
CCOC(=O)Nc1cc2c(c(N)n1)N=C(c1ccc(OC)c(OC)c1)CO2 | Encephalitozoon intestinalis |  | culture | 1 µg/mL | inhibition | RK-13 |  |  | 55%
CCO/N=C/c1ccc(OCCC2CCN(c3ccc(C)nn3)CC2)cc1 | Rhinovirus | neutral red | culture |  | EC50 | KB |  | CH47 (ICAM-1 receptor group 57) | 0.109 µM
NCc1ccc(-c2cncc(N3CCN(C(=O)c4ccco4)CC3)n2)cc1 | Cytomegalovirus |  | target |  | IC50 |  | UL97 kinase |  | <100 µM
Cc1cc(-c2ccc(N=Nc3ccc4c(S(=O)(=O)O)cc(S(=O)(=O)O)c(N)c4c3O)c(C)c2)ccc1N=Nc1ccc2c(S(=O)(=O)O)cc(S(=O)(=O)O)c(N)c2c1O | Rhinovirus | cytopathic effect | culture | 10 µg/mL | inhibition | Human embryonic lung cells |  |  | 0%
Nc1ccc(C(c2ccc(N)cc2)C(Cl)(Cl)Cl)cc1 | Mycobacterium tuberculosis |  | culture |  | MIC |  |  | H37Rv | >100 µg/mL
C[C@H](Cc1ccc(O)c(O)c1)[C@@H](C)Cc1ccc(O)c(O)c1 | Candida albicans | broth dilution | culture |  | MIC80 |  |  | CCC 127-2000 | 250 µg/mL
Fc1ccc(-c2cncc(N3CCN(c4ccc(F)cc4)CC3)n2)cc1 | Cytomegalovirus |  | target |  | IC50 |  | UL97 kinase |  | <100 µM
NC(=O)COc1ccc([As](=O)(O)O)cc1 | Mycobacterium tuberculosis |  | culture |  | MIC |  |  | H37Rv | >100 µg/mL
N#Cc1ccc(C(=O)Nc2nnc(NCc3cccc4ccccc34)s2)cc1 | Human cytomegalovirus |  | target |  | IC50 |  | Polymerase |  | <25 µM
Nc1cccc2c1oc1c(N)cccc12 | Mycobacterium tuberculosis |  | culture |  | MIC |  |  | H37Rv | 25 µg/mL
Cc1ccc(S(=O)(=O)N=Nc2c(O)[nH]c3cc(O)c(C(=O)O)cc23)cc1 | Mycobacterium tuberculosis | BACTEC | culture |  | MIC bound |  |  | H37Rv | >12.5 µg/mL
CCN(CC)C(=S)S.CC[NH2+]CC | Mycobacterium tuberculosis |  | culture |  | MIC |  |  | H37Rv | >100 µg/mL
Cc1cc(CCCOc2c(C)cc(-c3noc(C(F)(F)F)n3)cc2C)on1 | Rhinovirus | cytopathic effect / visual reading | culture |  | EC50 | OHIO HELA-I |  | Isolate 17 | >1 µg/mL
CNc1ccc(C(=O)O)cc1 | Mycobacterium tuberculosis |  | culture |  | MIC |  |  | H37Rv | 100 µg/mL
CCOC(=O)Nc1cc(NC(C)/C(=N/O)c2cccc([N+](=O)[O-])c2)c([N+](=O)[O-])c(N)n1 | Encephalitozoon intestinalis |  | culture | 1 µg/mL | inhibition | RK-13 |  |  | 0%
CCCCCCCCCCCCCCCCCCOC(=O)c1c(O)c(O)cc2ccccc12 | Mycobacterium tuberculosis |  | culture |  | MIC |  |  | H37Rv | >100 µg/mL
Nc1ncccc1/C=C/C(=O)c1cc(Cl)ccc1O | Mycobacterium tuberculosis |  | culture | 12.5 µg/mL | inhibition |  |  | H37Rv | 0%
N#CCCOc1ccccc1 | Mycobacterium tuberculosis |  | culture |  | MIC |  |  | H37Rv | >100 µg/mL
Nc1ccc2cc([N+](=O)[O-])cc(S(=O)(=O)[O-])c2c1 | Adenovirus | cytopathic effect | culture | 5 µg/mL | inhibition | Human embryonic lung cells |  | TYPE 3 | 10%
O=C(NCO)c1ccccc1 | Mycobacterium tuberculosis |  | culture |  | MIC |  |  | H37Rv | 100 µg/mL
O=C(/C=C/c1ccccc1)c1cc(Br)ccc1O | Mycobacterium tuberculosis |  | culture |  | EC50 |  |  |  | <12.5 µg/mL
O=C(c1ccccc1)c1cccc(Br)c1 | Mycobacterium tuberculosis |  | culture |  | MIC |  |  | H37Rv | 25 µg/mL
NS(=O)(=O)c1ccc(CNc2nnc(NC(=O)c3cc4ccccc4s3)s2)cc1 | Human cytomegalovirus |  | target |  | IC50 |  | Polymerase |  | >25 µM
Nc1c(S(=O)(=O)[O-])cc2cc(S(=O)(=O)[O-])ccc2c1O | Herpes simplex virus | cytopathic effect | culture | 5 µg/mL | inhibition | Human amnion AV3 cells |  |  | 0%
CC1=CCS(=O)(=O)C1C | Mycobacterium tuberculosis |  | culture |  | MIC |  |  | H37Rv | >100 µg/mL

A number after MIC or MFC names an inhibition level or a share of isolates. MIC bound comes from a single tested concentration. Blank or dashed fields: not listed here. Percent inhibition refers to the dose given; in toxicity tests it is the harm to the cells. Lines come from different laboratories, so protocols vary. ECn is the concentration giving n% inhibition of infection, replication or growth.